Compound potency records, mixed from different reports. Data source: NIAID ChemDB in PubChem.

All rows: tests in culture; organism: Mycobacterium tuberculosis

Two numbers with a dash give a range or band. Percent inhibition refers to the dose given; in toxicity tests it is the harm to the cells. ECn is the concentration giving n% inhibition of infection, replication or growth. An empty or dashed field is not shown. Conditions beyond the fields shown may differ between rows. MIC50, MIC90 and the like: level of inhibition, or share of isolates inhibited. MIC bound: limit read from a one-dose screen.

SMILES	endpoint	dose	read by	cell line	strain	mutations	result
Cc1nc2sccn2c1C(=O)N/N=C1\NC(=O)CS1	MIC				H37Rv		200 µg/mL
CC(C)[C@@H]1CCN(c2cc(Nc3ccccn3)nc(-c3ccccc3)n2)C1	MIC90		resazurin		H37Rv		32 µM
O=C(Cc1cccs1)N/N=C/c1sccc1[N+](=O)[O-]	MIC		resazurin		H37Rv (ATCC 27294)		8.5 µM
CC1=NN(c2ccccc2)C(=O)C1N=Nc1ccc(S(=O)(=O)Nc2nccc(C)n2)cc1	MIC		BACTEC		H37Rv		≥12.5 µg/mL
O=C(O)c1ccc(-n2c(-c3ccncc3)n[nH]c2=S)cc1O	inhibition	12.5 µg/mL	resazurin		H37Rv		90%
Cc1ccc(S(=O)(=O)NC(CCC(=O)NN)C(=O)O)cc1	inhibition	12.5 µg/mL	BACTEC		H37Rv		0%
O=c1nc(-c2cnccn2)ss1	MIC90		broth dilution		H37Rv		8 µg/mL
C=CCN(CCNC/C=C(\C)CCC=C(C)C)C1CCCC1	MIC				H37Rv		1 µM
COc1ccc(-c2oc3cc(O)cc(O)c3c(=O)c2OC)cc1	MIC bound		BACTEC		H37Rv		>12.5 µg/mL
CCc1c2c(nc3ccc(OCc4cc(F)cc(Cl)c4)cc13)-c1cc3c(c(=O)n1C2)COC(=O)C3(O)CC	MIC		resazurin		H37Rv		5.84 µM
c1ccc2c(c1)nnn1c3ncccc3nc21	MIC		resazurin		H37Rv		6.25 µg/mL
O=C(Nc1ccc(C(=O)O)c(O)c1)NC1CCCCC1	inhibition	12.5 µg/mL	resazurin		H37Rv		90%
CCC(CO)NCCNC1CCCC1	MIC				H37Rv		150 µM
O=c1oc(-c2ccc(F)cc2)ns1	MIC99		broth dilution		H37Rv		32 µg/mL
O=C(Cc1cccs1)N/N=C/c1cccc(Br)c1	MIC		resazurin		H37Rv (ATCC 27294)		>100 µg/mL
Cc1cc(C2=NOC(c3ccc(N(C)C)cc3)C2)ccc1O	MIC				INH-resistant M. tuberculosis		>6.25 µM
CCN(CC)CCCCOc1ccc(/C=C2\CC/C(=C\c3ccc(OCCCCN(CC)CC)c(OC)c3)C2=O)cc1OC	MIC99		visual reading		H37Rv		25 µM
COC(=O)c1cc(-c2ccc(N)cc2)c2c(=O)n(-c3ccccc3)[nH]c2n1	MIC		BACTEC		H37Rv		≥12.5 µg/mL
COc1cc(/C=C2\CC/C(=C\c3ccc(OCCCCN4CCC(C)CC4)c(OC)c3)C2=O)ccc1OCCCCN1CCC(C)CC1	MIC99		visual reading		H37Rv		12.5 µM
Cc1cc(C2=NOC(c3ccc(Cl)cc3)C2)ccc1O	MIC				H37R (MTB)		0.83 µM
CO[C@H]1/C=C/O[C@@]2(C)Oc3c(C)c(O)c4c(O)c(c(/C=N/N5CCN(C6CCCC6)CC5)c(O)c4c3C2=O)NC(=O)/C(C)=C\C=C\[C@H](C)[C@H](O)[C@@H](C)[C@@H](O)[C@@H](C)[C@H](OC(C)=O)[C@@H]1C	MIC				H37Rv (p-aminosalicylate-resistant)		1.25 µg/mL
CCCCCCCCCCCCCCCCNC(CCO)[C@H]1OC2OC(C)(C)OC2C2OC(C)(C)OC21	MIC				H37Rv		3.12 µg/mL
O=C(Cc1cccs1)N/N=C/c1cc([N+](=O)[O-])ccc1O	MIC		resazurin		H37Rv (ATCC 27294)		81.9 µM
CN1CCN(CCCCOc2ccc(/C=C3\CC/C(=C\c4ccc(OCCCCN5CCN(C)CC5)cc4)C3=O)cc2)CC1	MIC99		visual reading		H37Rv		12.5–25 µM
COc1cc2c(cc1OC)-c1cc3cc(OC)c(OC)cc3c(C)[n+]1CC2.O=C(O)CS(=O)(=O)[O-]	MIC bound		BACTEC		H37Rv		>12.5 µg/mL
CCc1c2c(nc3ccc(OCc4ccc(OC)c(F)c4)cc13)-c1cc3c(c(=O)n1C2)COC(=O)C3(O)CC	MIC		resazurin		H37Rv		23.56 µM
CCSc1nnc(-c2ccc([N+](=O)[O-])o2)s1	inhibition	6.25 µg/mL			H37Rv		100%
NCCCCCCCCCCCN	MIC				H37Rv		3.12 µg/mL
CS(=O)c1nnc(-c2ccc([N+](=O)[O-])o2)s1	MIC				H37Rv		3.13 µg/mL
CCCCCCCCCCCCC1OC2OC(C)(C)OC2[C@@H]1OCc1ccccc1	MIC				H37Rv		<12.5 µg/mL
CCCCNC(=S)NNC(=O)c1c(C)nc2sccn12	MIC				H37Rv		>200 µg/mL
Cc1cc(C2=NOC(c3ccco3)C2)ccc1O	MIC				INH-resistant M. tuberculosis		4.82 µM
Cc1nnc(-n2cccc2)s1	inhibition	12.5 µg/mL	BACTEC		H37Rv		4%
COc1ccc(C2CC(c3ccc(O)c(C)c3)=NO2)cc1OC	MIC				H37R (MTB)		>6.25 µM
c1ccc(C(CCNCCNCC23CC4CC(CC(C4)C2)C3)c2ccccc2)cc1	MIC				H37Rv		0.5 µM
Cc1ccn2c(C(=O)NCCCC(=O)OCc3ccccc3)c(C)nc2c1	MIC		resazurin		H37Rv		5.85 µM
C[C@H](NCCNCCC(c1ccccc1)c1ccccc1)C1CCCCC1	MIC				H37Rv		3 µM
O=C1OCCS1	inhibition	12.5 µg/mL	BACTEC		H37Rv		-6%
CCc1c2c(nc3ccc(OCc4ccccc4C(F)(F)F)cc13)-c1cc3c(c(=O)n1C2)COC(=O)C3(O)CC	MIC		resazurin		XDR	Extensively drug-resistant	11.32 µM
O=C1/C(=C/c2ccc(OCCCCN3CCCCCC3)cc2)CC/C1=C\c1ccc(OCCCCN2CCCCCC2)cc1	MIC99		visual reading		H37Rv		6.25–12.5 µM
CC1OC(C)C(O)C2=C1C(=O)c1ccccc1C2=O	MIC		BACTEC	VERO	H37Rv		12.5 µg/mL
CCCCCCCCCCCCCCCCCCNC(CCO)[C@H]1OC2OC(C)(C)OC2C2OC(C)(C)OC21	MIC				H37Ra		3.12 µg/mL
O=c1oc(-c2ccc(Cl)cc2)ns1	MIC99		broth dilution		H37Rv		64 µg/mL
CCCCCCCCCCCCCCCCNC[C@H]1OC2OC(C)(C)OC2C2OC(C)(C)OC21	MIC				H37Ra		25 µg/mL
Cc1ccc(/C=N/NC(=O)Cc2cccs2)c(O)c1	MIC		resazurin		H37Rv (ATCC 27294)		364.5 µM
Cc1cc(C2=NOC(c3cccc([N+](=O)[O-])c3)C2)ccc1O	MIC				INH-resistant M. tuberculosis		6.12 µM
O=C(Cc1cccs1)N/N=C/c1cccc([N+](=O)[O-])c1O	MIC		resazurin		H37Rv (ATCC 27294)		327.5 µM
CN(C)[C@@H]1CCN(c2cc(Nc3cc(C4CC4)[nH]n3)nc(-c3ccccc3)n2)C1	MIC99				H37Rv		5 µM
CCOC(=O)NC(=O)c1cn(CCCOC(=O)CCCCCCCCC(=O)OCCCn2cc(C(=O)NC(=O)OCC)c(=O)[nH]c2=O)c(=O)[nH]c1=O	inhibition	6.25 µg/mL	resazurin		H37Rv		20%
CS(=O)(=O)c1nnc(-c2ccc([N+](=O)[O-])o2)s1	inhibition	6.25 µg/mL			H37Rv		<90%
CC1(C)[C@H]2CC[C@@H](CNCCNCCC(c3ccccc3)c3ccccc3)[C@@H]1C2	MIC				H37Rv		1 µM
O=[N+]([O-])[O][Ga]([O][N+](=O)[O-])[O][N+](=O)[O-]	EC50				H37Ra		<500 µM
Cc1cc(C2=NOC(c3c(Cl)cccc3Cl)C2)ccc1O	MIC				H37R (MTB)		1.82 µM
CCC(Oc1c2ccoc2c(OC)c2oc(=O)cc(O)c12)C(=O)O	inhibition	6.25 µg/mL	resazurin		H37Rv		15%
CN1CCN(CCOc2cc(Nc3cc(C4CC4)[nH]n3)nc(-c3ccccc3)n2)CC1	MIC90		resazurin		H37Rv		64 µM
CCN1CCN(CCCCOc2ccc(/C=C3\CC/C(=C\c4ccc(OCCCCN5CCN(CC)CC5)cc4)C3=O)cc2)CC1	MIC99		visual reading		H37Rv		12.5 µM
Cc1cc2cc3c(=O)[nH]c(=O)cc-3n(CC(O)C(O)C(O)CO)c2cc1C	MIC		BACTEC		H37Rv		12.5 µg/mL
NCCCCCCCCCN	MIC				H37Rv		3.12 µg/mL
O=C1C(Cl)=C(NSCCSNC2=C(Cl)C(=O)c3ccccc3C2=O)C(=O)c2ccccc21	inhibition	12.5 µg/mL	BACTEC		H37Rv		73%
CCCCCCCNC(CCO)C1OC2OC(C)(C)OC2[C@@H]1OC	MIC				H37Rv		50 µg/mL
COc1cc(C2=NN(C(=O)COc3ccc4ccccc4c3)C3CCCC23)c(C)cc1OCC(=O)O	MIC				H37Rv		>6.25 µg/mL
O=C(O)c1ccc(N2C(=O)C(C(=O)C(F)(F)F)C(=O)N(c3ccc(S(=O)(=O)Nc4ncccn4)cc3)C2=S)cc1O	MIC90		broth dilution		H37Rv		<12.5 µg/mL
CCc1c2c(nc3ccc(OCc4c(F)c(F)c(F)c(F)c4F)cc13)-c1cc3c(c(=O)n1C2)COC(=O)C3(O)CC	MIC		resazurin		XDR	Extensively drug-resistant	5.46 µM
CC(=O)N1C(=O)C2(Nc3ccccc3N2)c2ccccc21	inhibition	12.8 µg/mL	BACTEC		H37Rv		16%
c1ccc(C(CCNCCNC2CCCCCCC2)c2ccccc2)cc1	MIC				H37Rv		3 µM
Cc1cc(S(=O)(=O)Nc2nc(N)n(-c3ccccc3)n2)c(S)cc1Cl	MIC bound		BACTEC		H37Rv		>12.5 µg/mL
CNC(=S)NNC(=O)c1c(C)nc2sccn12	MIC				H37Rv		>200 µg/mL
O=[N+]([O-])c1ccc(-c2nnc(S(=O)(=O)Cc3ccc(F)cc3Cl)s2)o1	inhibition	6.25 µg/mL			H37Rv		11%
Cc1cc2c(cc1Cl)nc1c(=O)[nH]c(=O)nc-1n2C[C@H](O)[C@H](O)[C@H](O)CO	MIC bound		BACTEC		H37Rv		>6.25 µg/mL
Cc1ccc(O)c(/C=N/NC(=O)Cc2cccs2)c1	MIC		resazurin		H37Rv (ATCC 27294)		364.5 µM
c1ccc(-c2nc(Nc3cc(C4CC4)[nH]n3)cc(OCCN3CCCC3)n2)cc1	MIC90		resazurin		H37Rv		32 µM
Cc1ccc(NC2=CC(=O)C(=O)c3ccccc32)cc1	inhibition	6.25 µg/mL	resazurin		H37Rv		101%
c1ccc(-c2nc(NCCc3cnc[nH]3)cc(Nc3cc(C4CC4)[nH]n3)n2)cc1	MIC99				H37Rv		>20 µM
Cc1c(NC(=S)Nc2ccc(C(=O)O)c(O)c2)c(=O)n(-c2ccccc2)n1C	MIC90		broth dilution		H37Rv		>12.5 µg/mL
COC(=O)[C@H]1[C@H](O)[C@@H](C)[C@@H](O)[C@](C)(O)/C=C(\C)C2=C3C(=C(C)C(=O)c4c(O)c(c(C)c(OC(C)=O)c43)NC(=O)/C(C)=C/C=C\[C@@H](C)C(O)[C@@H](C)[C@H]1O)OCO2	MIC				RMP-R		>12.8 µg/mL
Cc1cc(C2=NOC(c3ccccc3)C2)ccc1O	MIC				H37R (MTB)		>6.25 µM
COc1ccc(/C=C2\N=C(c3ccc([N+](=O)[O-])cc3)OC2=O)cc1OC	MIC bound		BACTEC		H37Rv		>12.5 µg/mL
CCc1c2c(nc3ccc(OCc4ccccc4Br)cc13)-c1cc3c(c(=O)n1C2)COC(=O)C3(O)CC	MIC		resazurin		H37Rv		11.13 µM
CO[C@@]12[C@H](COC(=O)NCCO)C3=C(C(=O)C(C)=C(N)C3=O)N1C[C@H]1[C@@H]2N1C	MIC				TAC-R		6.3 µg/mL
O=C(O)c1ccc(Nc2nnc(-c3ccncc3)s2)cc1O	MIC90		broth dilution		H37Rv		>12.5 µg/mL
C[C@@H]1[C@H]2C[C@@H](C[C@H]1NCCNCCC(c1ccccc1)c1ccccc1)C2(C)C	MIC				H37Rv		3 µM
CCc1c2c(nc3ccc(OCc4ccc(F)c(F)c4)cc13)-c1cc3c(c(=O)n1C2)COC(=O)C3(O)CC	MIC		resazurin		XDR	Extensively drug-resistant	12.06 µM
Cc1sc(-c2nsc(=O)o2)cc1[N+](=O)[O-]	MIC99		broth dilution		H37Rv		4 µg/mL
Cc1nc2sccn2c1C(=O)NNC(N)=S	MIC				H37Rv		100 µg/mL

The first 5 rows once more:

SMILES,endpoint,dose,read by,cell line,strain,mutations,result
Cc1nc2sccn2c1C(=O)N/N=C1\NC(=O)CS1,MIC,,,,H37Rv,,200 µg/mL
CC(C)[C@@H]1CCN(c2cc(Nc3ccccn3)nc(-c3ccccc3)n2)C1,MIC90,,resazurin,,H37Rv,,32 µM
O=C(Cc1cccs1)N/N=C/c1sccc1[N+](=O)[O-],MIC,,resazurin,,H37Rv (ATCC 27294),,8.5 µM
CC1=NN(c2ccccc2)C(=O)C1N=Nc1ccc(S(=O)(=O)Nc2nccc(C)n2)cc1,MIC,,BACTEC,,H37Rv,,≥12.5 µg/mL
O=C(O)c1ccc(-n2c(-c3ccncc3)n[nH]c2=S)cc1O,inhibition,12.5 µg/mL,resazurin,,H37Rv,,90%